HELM strings list residues between dots; [ac] is acetyl, [am] amide, other brackets name non-standard units.

The first data set in a line: general procedure: solution-phase peptide synthesis; BOP. To be noted: coupling step.
“(4-BzlOPh)CH₂CH₂C(O)-Val-ACHPA-Leu-PheNH₂”: the step yield was 77%.

Turning to Ac-Val-Pheψ[CH₂NH]Leu-Glu(OBzl)-Ile-NH₂, the step yield is 52%.

As to Boc-Val-ACHPA-Leu-Phe-NH₂, the step yield is on record as 84%.

Substance “PEPTIDE1{[S-glyceroyl].V.[ACHPA].L.F.[am]}$$$$V2.0” displayed a step yield of 42%.

Still in this data set, the particulars now being: late stage modification step.
For the substance (4-HOPh)CH₂CH₂CO-Val-ACHPA-Leu-Phe-NH₂, the step yield is 61%.

Take “PEPTIDE1{[BzlOCOCH2OPhCH2CH2CO].V.[ACHPA].L.F.[am]}$$$$V2.0”: the step yield is 30%.

As to “PEPTIDE1{[ac].V.[PhepsiCH2NHLeu].E.I.[am]}$$$$V2.0”, the step yield turned out to be 96%.

On to “[4-(HOC(O)CH₂O)Ph]CH₂CH₂C(O)-Val-ACHPA-Leu-Phe-NH₂”, for which the step yield stood at 81%.

For the origin of these results see patent EP0443559A2 (BIO-MEGA/BOEHRINGER INGELHEIM RESEARCH INC., priority 1990, dated 1991).
